These results are taken from US20060079497A1, “Lavendamycin analogues and methods of synthesizing and using lavendamycin analogues” (Ball State University, priority 2004, published 2006).

This assay has as its target T1, HIV reverse transcriptase (HIV-RT) (Human immunodeficiency virus type 1 group M subtype B, UniProt P04585).
T1 construct: 1 unit/mL of HIV-RT (Worthington Biochemical Corp., Freehold, N.J.); purchased Worthington Biochemical Corp., Freehold, N.J
The assay is described as follows: HIV-RT assay (3H-TTP incorporation, modified assay of Okada et al.). The class given is biochemical. As to conditions: read-out: IC50 against HIV-RT. The protocol:
Briefly, the analogues were initially dissolved in either DMSO or HEPES buffer (pH 7.2) and then diluted to the appropriate concentration before addition to the assay mixtures. […] Several control wells without any inhibitors were also included on each microtiter plate. The reactions were allowed to proceed for 1 h at 37° C. […] A more detailed description of reaction conditions is provided below in the Examples. The concentration of drug which inhibited 50% of the enzyme activity (IC50) was determined by using the computer software program Calcusyn, which plots the dose-effect curves from the inhibition data and calculates the IC50 for each drug.
The assay procedure described below is adapted from Okada et al. (Okada, H.; Mukai, H.; Inouye, Y; Nakamura, S. “Biological Properties of Streptonigrin Derivatives II. Inhibition of Reverse Transcriptase Activity,” J. Antibiot., 1986, 39, 306-308). […] For each assay, the reaction mixture containing 8× buffer, double distilled H2O, ^3HTTP, template-primer and HIV-RT was pre-mixed in a 15-mL sterile tube in quantities required for the particular experiment. […] After drying the individual filter papers were added to 5 mL Scintiverse E (Fisher Scientific, Chicago, Ill.) scintillation fluid and the amount of 3H-TTP uptake measured as counts per minute on a Beckman liquid scintillation counter. […]

One may read the IC50 as the concentration needed to halve the response being measured. For the substance “AZT-triphosphate [AZT-TP, reference compound]”, the IC50 amounted to 12 nM.
